Results of unrelated studies side by side (data: NIAID ChemDB).

Shared fields: cytotoxicity tests; cell line: MT-4; measure: CC50

CCn is the concentration with n% toxicity to the cells. An empty or dashed field is not shown. Rows are shuffled and stem from different studies.

| compound | method | value |
|---|---|---|
| COc1ccc(S(=O)(=O)O)cc1N=Nc1c(S(=O)(=O)O)cc2cc(Nc3nc(Nc4ccccc4)nc(Nc4cc(C)c(N=Nc5cc(S(=O)(=O)O)cc6cc(S(=O)(=O)O)cc(O)c56)cc4OC)n3)ccc2c1O | MTT | >50 µg/mL |
| Cc1cc(C)c(CN2CCC(Nc3nc(Nc4c(C)cc(C)cc4C)c4[nH]cnc4n3)CC2)c(C)c1 | MTT | 4.8 µM |
| CCNC(=O)[C@@H](NS(=O)(=O)Cc1ccccc1)[C@@H]1N[C@@H](C(=O)NCCNC(=O)[C@@H]2N[C@@H]([C@H](NS(=O)(=O)Cc3ccccc3)C(=O)NCC)SC2(C)C)C(C)(C)S1 |  | >100 µM |
| O=C1CN(C(=O)c2cc(-c3cc(F)cc(Cl)c3)n(-c3ccc(F)c(Cl)c3)n2)CN1 | resazurin | 15 µM |
| CC(C)Nc1cccnc1N1CCN(C(=O)c2cc3cc(NS(C)(=O)=O)ccc3[nH]2)CC1 | MTT | >43.81 µM |
| Cc1c(Cc2c(F)cccc2F)nc(SCC(=O)c2ccc(Cl)cc2)[nH]c1=O |  | >59.52 µM |
| Cc1cc(C#N)cc(C)c1Oc1ccnc(NC2CCN(CC(=O)Nc3cccc(F)c3)CC2)n1 | MTT | 1.412 µM |
| O=c1[nH]c(=O)n(COCc2ccccc2)c2c1Nc1ccc(Cl)cc1S2 | MTT | 3 µg/mL |
| Cc1cn([C@H]2C[C@H](N=[N+]=[N-])[C@@H](CO)O2)c(=O)[nH]c1=O | MTT | 43.26 µM |
| Cc1cc(C#N)cc(C)c1Oc1ccnc(NC2CCN(CC(=O)Nc3c(Cl)cc(Cl)cc3Cl)CC2)n1 | MTT | 1.5 µM |
| CO/N=C1\C(=O)N(CCOCCN2C(=O)/C(=N/OC)c3cc(Cl)ccc32)c2ccc(Cl)cc21 | MTT | 193 µM |
| COc1ccc(COCCSc2nc(Cc3c(F)cccc3F)c(C)c(=O)[nH]2)cc1 |  | >55.87 µM |
| CCNC(=O)[C@@H](NC(=O)Cc1ccccc1)[C@@H]1N[C@@H](C(=O)NCCNC(=O)[C@@H]2N[C@@H]([C@H](NC(=O)Cc3ccccc3)C(=O)NCC)SC2(C)C)C(C)(C)S1 |  | >100 µM |
| CCCN(C)c1nc(N)nc2c1ncn2[C@H]1C[C@H](N=[N+]=[N-])[C@@H](CO)O1 |  | >200 µM |
| Cc1cn([C@H]2C[C@H](N=[N+]=[N-])[C@@H](COP(=O)(OCCSC(=O)C(C)(C)C)OCCSC(=O)C(C)(C)C)O2)c(=O)[nH]c1=O |  | >10 µM |
| O=c1[nH]cnc2c1ncn2[C@H]1CC[C@@H](CO)O1 |  | >2.24 µM |
| [N-]=[N+]=N[C@H]1C[C@H](n2cnc3c(Nc4ccccc4)nc(N)nc32)O[C@@H]1CO |  | <200 µM |
| C1CNCCNCCCNCCNC1 |  | 950 µM |
| CCC(=CCN1Cc2cc(C)cc3[nH]c(=O)n(c23)CC1C)CC |  | 20 µM |
| COc1ccc(/C=C/CSc2nc(Cc3c(F)cccc3F)c(C)c(=O)[nH]2)cc1 |  | 3.93 µM |
| N#Cc1ccc(Nc2nccc(C(O)c3ccc4ccccc4c3)n2)cc1 | MTT | 35.5 µM |
| [N-]=[N+]=N[C@H]1C[C@H](n2cnc3c(NC4CC4c4ccccc4)nc(N)nc32)O[C@@H]1CO |  | 32 µM |
| CCNC(=O)[C@@H](NC(=O)c1c(-c2ccccc2)noc1C)[C@@H]1N[C@@H](C(=O)NCCNC(=O)[C@@H]2N[C@@H]([C@H](NC(=O)c3c(-c4ccccc4)noc3C)C(=O)NCC)SC2(C)C)C(C)(C)S1 |  | >100 µM |
| C=C(C)CN1Cc2cccc3[nH]c(=O)n(c23)C[C@@H]1C |  | 110 µM |
| CCCCNc1nc(N)nc2c1ncn2[C@H]1C[C@H](N=[N+]=[N-])[C@@H](CO)O1 |  | <200 µM |
| Cc1c(C(C)c2c(F)cccc2F)nc(SC/C=C/c2ccc([N+](=O)[O-])cc2)[nH]c1=O |  | >11.28 µM |
| CN(C)C(=O)N1CCC(NC(=O)c2cc(O)c(O)c(O)c2)CC1 | MTT | 34.3 µM |
| N#Cc1ccc(CN2CCC(N=C3C=C(Cc4cccc5ccccc45)NS(=O)(=O)N3)CC2)cc1 | MTT | 100 µM |
| [N-]=[N+]=N[C@H]1C[C@H](n2cnc3c(NC4CCC4)nc(N)nc32)O[C@@H]1CO |  | <200 µM |
| O=C1C(=O)N(CCOCCN2C(=O)C(=O)c3cc(F)ccc32)c2ccc(F)cc21 | MTT | 132.5 µM |
| CC(=O)C1(c2ccccc2)C(=O)C=C2N(C1=O)c1ccc(Cl)cc1C2(C)C |  | >6.5 µM |
| O=C1/C(=C/c2cc(O)c(O)c(O)c2)CN(Cc2ccccc2)C/C1=C\c1cc(O)c(O)c(O)c1 | MTT | 117 µM |
| Cc1cn([C@H]2C[C@H](N=[N+]=[N-])[C@@H](CO)O2)c(=O)[nH]c1=O | MTT | >93.55 µM |
| O=C1NS(=O)(=O)c2cc(Cl)ccc2-n2cccc21 |  | ≥200 µM |
| Cc1cc(C)cc(Sc2c(C(C)C)c(=O)[nH]c(=S)n2COCCO)c1 |  | 52 µM |
| Nc1ccn([C@H]2CC[C@@H](CO)O2)c(=O)n1 | MTT | >94.69 µM |
| CCN1C2C(S(=O)(=O)c3ccc(C)cc3)=NCN2c2ccccc2S1(=O)=O |  | >200 µM |
| C=CCN1Cc2cccc3[nH]c(=O)n(c23)CC1C |  | 620 µM |
| CC(C)=CCN1C(=O)c2cccn2-c2ccc(Cl)cc2S1(=O)=O |  | 10 µM |
| O=C(NC1CCN(S(=O)(=O)c2ccc(F)cc2)CC1)c1cc(O)c(O)c(O)c1 | MTT | 178.4 µM |
| Cc1cc(C#N)cc(C)c1Oc1ccnc(NC2CCN(CC(=O)Nc3ccc(Cl)c(Cl)c3)CC2)n1 | MTT | 1.275 µM |
| C=C(C)CN1Cc2cc(Cl)cc3[nH]c(=S)n(c23)[C@@H](C)C1 |  | 24 µM |
| O=C(O)c1cn2c3c(c(N4CCN(c5ccccn5)CC4)c(F)cc3c1=O)OCC2CF |  | >25 µg/mL |
| CCOc1ccc(CSc2nc(Cc3c(F)cccc3F)c(C)c(=O)[nH]2)cc1 |  | >62.19 µM |
| O=C1/C(=C/c2ccc([N+](=O)[O-])c(O)c2)CNC/C1=C\c1ccc([N+](=O)[O-])c(O)c1 | MTT | 1.2 µM |
| Cc1cc(C#N)cc(C)c1Oc1ccnc(NC2CCN(CC(=O)Nc3ccccc3)CC2)n1 | MTT | 1.818 µM |
| CC(C)=CCN1C(C)C(=O)N(C)c2ccc(Cl)cc2S1(=O)=O |  | 41 µM |
| Cc1cc(C#N)cc(C)c1Oc1ccnc(NC2CCN(CC(=O)Nc3ccc(C#N)cc3F)CC2)n1 | MTT | 1.962 µM |
| CCCN1Cc2cccc3[nH]c(=S)n(c23)CC1C |  | 560 µM |
| CCc1c(Cc2c(Cl)cccc2Cl)nc(SC/C=C/c2ccc(C#N)cc2)[nH]c1=O |  | >54.82 µM |
| CC(C)=CCN1Cc2cc(Cl)cc3[nH]c(=S)n(c23)C[C@@H]1C |  | 34 µM |
| O=[N+]([O-])c1ccc(CN2CCC(N=C3C=C(Cc4ccc(Cl)cc4Cl)NS(=O)(=O)N3)CC2)cc1 | MTT | 97.06 µM |
| CCCNc1nc(N)nc2c1ncn2[C@H]1C[C@H](N=[N+]=[N-])[C@@H](CO)O1 |  | >200 µM |
| CC1(C)S[C@H]([C@H](NC(=O)c2ccccc2-c2ccccc2)C(=O)NCc2ccccc2)N[C@H]1C(=O)NCCNC(=O)[C@@H]1N[C@@H]([C@H](NC(=O)c2ccccc2-c2ccccc2)C(=O)NCc2ccccc2)SC1(C)C |  | >100 µM |
| CCOc1nc(N)nc2c1ncn2[C@H]1C[C@H](N=[N+]=[N-])[C@@H](CO)O1 |  | >200 µM |
| Cc1ccccc1CN1CCC(N=C2C=C(Cc3cccc4ccccc34)NS(=O)(=O)N2)CC1 | MTT | 107 µM |
| CCc1c(Cc2c(F)cccc2F)nc(SCc2ccc(C#N)cc2)[nH]c1=O |  | >62.97 µM |
| O=S1(=O)NC(Cc2ccc(Cl)cc2Cl)=CC(=NC2CCN(Cc3ccc(F)cc3)CC2)N1 | MTT | 103 µM |
| Cc1ccc2c(c1)Sc1c(c(=O)[nH]c(=O)n1COCc1ccccc1)N2 | MTT | 1.9 µg/mL |
| CC(C)N1C(=O)c2cccn2-c2ccc(Cl)cc2S1(=O)=O |  | 29 µM |
| O=c1[nH]c(=O)n(COCCO)c2c1Nc1ccccc1S2 | MTT | 276 µg/mL |
| Cc1ccnc2c1NC(=O)c1cccnc1N2C1CC1 |  | >0.06 µM |
| CN1C/C(=C\c2ccc(O)c([N+](=O)[O-])c2)C(=O)/C(=C/c2ccc(O)c([N+](=O)[O-])c2)C1 | MTT | 25 µM |
| C[C@H]1Cn2c(=S)[nH]c3cc(Cl)cc(c32)CN1CCC1CC1 |  | 36 µM |
| N#Cc1nc(N)nc2c1ncn2[C@H]1C[C@H](N=[N+]=[N-])[C@@H](CO)O1 |  | >200 µM |
| COc1ccc(S(=O)(=O)N2CCC(NC(=O)c3cc(O)c(O)c(O)c3)CC2)cc1 | MTT | 130.5 µM |
| CCN1C(c2c(Cl)cccc2Cl)c2cccn2-c2ccc(Cl)cc2S1(=O)=O |  | 4.8 µM |
| Cc1cc(C)c(Nc2nc(NC3CCN(Cc4cccnc4)CC3)nc3nc[nH]c23)c(C)c1 | MTT | 132 µM |
| Cc1ccc(C(=O)N2CCC(NC(=O)c3cc(O)c(O)c(O)c3)CC2)cc1 | MTT | 29.6 µM |
| C1CNCCNCC(CCCC2CNCCNCCCNCCNC2)CNCCNC1 |  | 260 µM |
| CCC(=CCN1Cc2cc(Cl)cc3[nH]c(=S)n(c23)C[C@@H]1C)CC |  | 12 µM |
| Cc1cn([C@H]2C[C@H](N=[N+]=[N-])[C@@H](CO)O2)c(=O)[nH]c1=O | MTT | <7.1 µM |
| CN(C)C(=O)[C@@H](NC(=O)Cc1ccccc1)[C@@H]1N[C@@H](C(=O)NCCNC(=O)[C@@H]2N[C@@H]([C@H](NC(=O)Cc3ccccc3)C(=O)N(C)C)SC2(C)C)C(C)(C)S1 |  | >100 µM |
| C1CNCCNCCNCCNCCNCCN1 |  | <7.6 µM |

Repeating the first 4 entries:

compound	method	value
COc1ccc(S(=O)(=O)O)cc1N=Nc1c(S(=O)(=O)O)cc2cc(Nc3nc(Nc4ccccc4)nc(Nc4cc(C)c(N=Nc5cc(S(=O)(=O)O)cc6cc(S(=O)(=O)O)cc(O)c56)cc4OC)n3)ccc2c1O	MTT	>50 µg/mL
Cc1cc(C)c(CN2CCC(Nc3nc(Nc4c(C)cc(C)cc4C)c4[nH]cnc4n3)CC2)c(C)c1	MTT	4.8 µM
CCNC(=O)[C@@H](NS(=O)(=O)Cc1ccccc1)[C@@H]1N[C@@H](C(=O)NCCNC(=O)[C@@H]2N[C@@H]([C@H](NS(=O)(=O)Cc3ccccc3)C(=O)NCC)SC2(C)C)C(C)(C)S1		>100 µM
O=C1CN(C(=O)c2cc(-c3cc(F)cc(Cl)c3)n(-c3ccc(F)c(Cl)c3)n2)CN1	resazurin	15 µM